# Laboratory results: article PMC8692891, “Native CGRP Neuropeptide and Its Stable Analogue SAX, But Not CGRP Peptide Fragments, Inhibit Mucosal HIV-1 Transmission” (Frontiers in Immunology, 2021)
# Columns and labels:
# [1] = test system: HIV-1 (V29)-infected PBMCs; assay: HIV-1 infection of dermal T-cells in inner foreskin tissue explants ex-vivo; assay type: cell-based; conditions: explants pre-treated 24 h at 1 μM, inoculated 4 h, further three days incubation; flow cytometry; n = 4
# Procedure: (§1) For infection experiments, round (8 mm diameter) inner foreskin tissue pieces were placed in 24-well plates and incubated submerged for 24 h at 37°C with 1 ml complete RPMI medium, alone or supplemented with CGRP or SAX (1 μM, four explants per condition). The tissues were next washed, transferred to two-chamber transwell inserts (Sigma), and inoculated in a polarized manner for 4 h at 37°c with either non-infected or HIV-1 (V29)-infected PBMCs (in duplicates), as we described ([11], [12]).
# Dermal cell suspensions were prepared following washing of the explants, additional incubation for three days at 37°C submerged in 1 ml fresh medium, and subsequent enzymatic digestion with collagenase/DNase as we described ([11], [12]). Pooled cells of each duplicate were surface stained as above using FITC-conjugated mouse-anti-human CD3 Ab (Pharmingen), fixed, permeabilized, and stained for 30 min at room temperature with 1:160 dilution of PE-conjugated mouse-anti-human Ab to HIV-1 p24 and core antigens (Beckman Coulter). Fluorescent profiles were recorded using a Guava easyCyte and InCyte software.
# (§2) Figure 6 CGRP and SAX inhibit mucosal HIV-1 transmission in human mucosal tissues ex-vivo. […] Images are representative of n = 3 tissues; broken lines denote the basement membranes and scale bar = 20 μm; E, epithelium and S, stroma. […]
# HIV-1 ADA = assay: MDLCs-mediated HIV-1 trans-infection to CD4+ T-cells; assay type: cell-based; conditions: MDLCs treated 24 h
# Procedure: (§3) MDLCs (10^5/well in 96 round-bottom well plates) were treated for 24 h at 37°C (200 μl/well final) with the indicated molar concentrations of CGRP, SAX or CGRP fragments. The CGRP receptor antagonist BIBN4096 was added 15 min before agonists. For langerin surface expression, MDLCs were washed and stained for 20 min on ice in a final volume of 50 µl PBS with a phycoerythrin (PE)-conjugated mouse monoclonal Ab against human langerin (clone DCGM4, Beckman Coulter), or matched isotype control. For HIV-1 trans-infection, MDLCs were washed and pulsed with HIV-1 ADA (1ng p24 corresponding to multiplicity of infection of 0.2) for 4 h. MDLCs were next incubated with autologous CD4+ T-cells or with green fluorescent protein (GFP)-reporter T-cells, and HIV-1 replication was measured in the co-culture supernatants using p24 ELISA (Fujirebio) or by evaluating GFP fluorescent by flow cytometry, as we described ([13]–[15]). Fluorescent profiles were acquired using a Guava easyCite and analyzed with the InCyte software (Merck-Millipore).
# (§4) Data was analyzed using Prism software (GraphPad). Concentration-response curves were analyzed with the [log(agonist) vs. response (three parameters)] model for langrin upregulation and the [log(inhibitor) vs. normalized response − variable slope] model for HIV-1 trans-infection inhibition. […] Statistical significance was analyzed with the two-tailed Student’s t-test. […]
# [2] = test system: langerin surface expression in MDLCs; assay: Langerin surface expression in MDLCs (flow cytometry); assay type: cell-based, human; conditions: MDLCs treated 24 h, -log molar, n = 5
# Procedure: as §3, §4
# [3] = test system: LC-T-cell conjugates in inner foreskin tissue explants; assay: LC-T-cell conjugate formation in inner foreskin tissue explants ex-vivo; assay type: cell-based, human; conditions: explants pre-treated 24 h at 1 μM, polarized inoculation with HIV-1-infected PBMCs 4 h; flow cytometry; n = 4
# Procedure: as §1
# Epidermal cell suspensions were prepared immediately after inoculation, using enzymatic digestion with dispase/trypsin as we described ([11], [12]). Pooled cells of each duplicate were resuspended in PBS, transferred to 96 round-bottom well plates and stained for 30 min on ice with 10 μl of fluorescein isothiocyanate (FITC)-conjugated mouse-anti-human CD1a, PE-conjugated mouse-anti-human CD8 and allophycocyanin (APC)-conjugated mouse-anti-human CD3 (BD Pharmingen) Abs, diluted in PBS in a final volume of 50 μl/well.
# as §2, with “stroma. (B, C) Inner foreskin tissue explants were left untreated or pre-treated with CGRP or SAX (1 μM) for 24 h at 37°C.” for “stroma.”
# HIV-1 JRCSF = assay: Vaginal HIV-1 challenge of humanized BLT mice; assay type: in vivo; conditions: n = 5 per group
# Procedure: Humanized female bone-marrow/liver/thymus (BLT) mice were prepared, inoculated and examined for HIV-1 infection at the Ragon Institute Human Immune System Mouse Program, according to their established protocols (see https://www.ragoninstitute.org/research/services/humanized-mouse/). Expression of human langerin was determined by immunohistochemistry of 4 μm vaginal tissue paraffin sections as we described ([12]), using goat-anti-human langerin Ab (R&D), the LSAB2-HRP System with DAB as substrate (Dako) and counterstaining with hematoxylin. For infection experiments, CGRP (500 nM or 5 μM) in 30 μl sterile PBS or PBS alone were topically applied onto the vaginal epithelium for 4 h, followed by topical vaginal challenge with 2 × 10^4 TCID50 HIV-1 JRCSF.
# Figure 1 CGRP limits mucosal HIV-1 transmission in-vivo. (A) CGRP (1 μM) or PBS were topically applied intravaginally in normal female BALB/c mice (n = 3 animals per group). Vaginal tissue sections were examined by immunohistochemistry for the presence of CD3+ T-cells, B220+ B cells and F4/80+ macrophages. Shown are mean ± SEM cell densities expressed as cells/mm^2 (of n = 3 independent experiments) in either the vaginal epithelium or stroma. […]
substance,measurement,setting,value
calcitonin gene-related peptide [CGRP],HIV-1 infection of dermal T-cells (p24+CD3+),[1],completely blocked such infection
same,"pIC50 [95% CI], inhibition of MDLCs-mediated HIV-1 trans-infection","HIV-1 ADA; pulsed with HIV-1 ADA 4 h, 7 days with autologous CD4+ T-cells, p24 ELISA, -log molar, n = 5",10.2 [10.9–9.4]
same,Inhibition of MDLCs-mediated HIV-1 trans-infection (in words),HIV-1 ADA; p24 ELISA or GFP-reporter T-cells by flow cytometry,strongly inhibited
same,"pEC50 [95% CI], increase in langerin surface expression",[2],10.6 [11.5–9.7]
same,HIV-1-induced increase in LC-T-cell conjugates,[3],completely abrogated this increase
same,CD4+ T-cells counts,"HIV-1 JRCSF; single application of 500 nM or 5 μM for 4 h before challenge, weeks 4, 6, 24 and 26",significantly maintained higher
same,Plasma viral loads,"HIV-1 JRCSF; single application of 500 nM or 5 μM in 30 μl PBS for 4 h before challenge, weeks 4 and 6",dose dependently and significantly restricted the increase
